Results of unrelated studies side by side (data: NIAID ChemDB).

All rows: host cell toxicity; cells: MT-4; read-out: CC50

CCn is the concentration with n% toxicity to the cells. Lines come from different laboratories, so protocols vary. a–b is a range or a potency band.

smiles	result
Nc1ncnc2c1ccn2CCOCP(=O)(O)O	>7.56 µg/mL
COc1ccnc2[nH]cc(C(=O)C(=O)N3CCN(C(=O)c4ccccc4)C[C@H]3C)c12	>225 µM
C=C(C)[C@@H]1CC[C@]2(C(=O)NCCCCCCCNC(C)=O)CC[C@]3(C)[C@H](CC[C@@H]4[C@@]5(C)CC[C@H](OC(=O)CC(C)(C)C(=O)O)C(C)(C)[C@@H]5CC[C@]43C)[C@@H]12	8 µM
N#Cc1cc(Cl)cc(Oc2cc(OCc3[nH]nc4ccncc34)ccc2Cl)c1	>8.3 µM
CC(=O)N[C@H]1OC(CO[Si](C)(C)C(C)(C)C)C2(OS(=O)(=O)C=C2N)C1O[Si](C)(C)C(C)(C)C	14.8 µM
CCc1nc([N+](=O)[O-])c(N2CCN(C(=O)CSc3ccccc3)CC2)n1Cc1ccccc1	4.17 µg/mL
Nc1nc2c(ncn2CCOCP(=O)(O)O)c(=O)[nH]1	>0.2 µg/mL
COc1ccc(CCNC(=S)OCCNC(=O)c2ccccc2C(=O)O)cc1OC	>100 µM
O=C(O)c1cn(C2CC2)c2c(OC(F)F)c(N3CCN(c4ncccc4[N+](=O)[O-])CC3)c(F)cc2c1=O	125 µg/mL
CCc1ccc(NC(=S)OCCN2C(=O)c3ccc(C)cc3C2=O)cc1	>100 µM
Nc1ccn([C@H]2CC[C@@H](CO)O2)c(=O)n1	48 µg/mL
O=C(/C=C/C1=CC2C=Cc3cc(O)c(O)cc3OC2C(O)=C1)OC(Cc1ccc(O)c(O)c1)C(=O)O	3.7–24.1 µg/mL
CCc1nc([N+](=O)[O-])c(N2CCN(C(=O)CSC)CC2)n1Cc1ccccc1.c1ccc2ccccc2c1	12.69 µg/mL
Cc1ccc2[nH]c(=S)n(Cc3c(F)cccc3F)c2c1	>25 µg/mL
CC(C)CC(=O)N1C[C@@H](O)[C@@H](Cc2ccccc2)N(Cc2cccc(N)c2)C(=O)N1Cc1cccc(N)c1	59.5 µM
CC(=O)Nc1ccn([C@H]2CS[C@@H](COC(C)=O)O2)c(=O)n1	330 µM
CCc1nc([N+](=O)[O-])c(N2CCN(C(=O)CS(=O)(=O)c3cccc4ccccc34)CC2)n1Cc1ccccc1	30.23 µg/mL
COc1cc(OC)c(C2SCC(=O)N2Cc2ccco2)c(OC)c1	6.88 µM
O=C1CSC(c2c(F)cccc2F)N1Cc1ccccn1	302 µM
O=[N+]([O-])c1cnn2c1nnc1ccccc12	0.8 µM
O=C(c1ccco1)N1C[C@@H](O)[C@@H](Cc2ccccc2)N(Cc2ccc(O)cc2)C(=O)N1Cc1ccc(O)cc1	17.3 µM
Cc1ccc2c(c1)C(=O)N(CCOC(=S)Nc1ccc(Cl)c(Cl)c1)C2=O	>100 µM
NC(=O)/C(=C\c1ccc(Cl)cc1)n1nnc2ccccc21	16 µM
Nc1nc2c(ncn2[C@H]2CO[C@@H](CCP(=O)(O)O)O2)c(=O)[nH]1	90 µg/mL
CC(C)CC(=O)N1C[C@@H](O)[C@@H](Cc2ccccc2)N(Cc2ccc(N)cc2)C(=O)N1Cc1ccc(N)cc1	77.1 µM
CN1C(=O)[C@@H](c2cc(Cl)c(O)c(Cl)c2)NC(=O)[C@@H]2NC(=O)[C@H](c3cc(Cl)c(O)c(Cl)c3)NC(=O)[C@@H](NC(=O)C(=O)c3cc(Cl)c(O)c(Cl)c3)Cc3c[nH]c4cc(ccc34)-c3cc2cc(c3O)Oc2ccc(cc2)C[C@H]1C(=O)N[C@@H](C(=O)O)c1ccc(O)cc1	>400 µg/mL
CCc1nc([N+](=O)[O-])c(N2CCN(C(=O)c3cccs3)CC2)n1Cc1ccccc1	58.93 µg/mL
CCc1cc(NCc2nc(C)c(C)cc2OC)c(=O)[nH]c1C	>50 µM
c1ccc2c(c1)nnc1ccnn12	>200 µM
CCCC(CCC)C(=O)N1C[C@@H](O)[C@@H](Cc2ccccc2)N(Cc2ccc(O)cc2)C(=O)N1Cc1ccc(O)cc1	16.6 µM
NCCCNC(=O)CC(N)CCCN	0.028 µg/mL
Fc1cccc(F)c1Cn1c(=S)[nH]c2ccc(Cl)cc21	2.33 µg/mL
C=C(C)[C@@H]1CC[C@]2(C(=O)NCCCCCNC(C)=O)CC[C@]3(C)[C@H](CC[C@@H]4[C@@]5(C)CC[C@H](OC(=O)CC(C)(C)C(=O)O)C(C)(C)[C@@H]5CC[C@]43C)[C@@H]12	9 µM
CCOC(=O)CCCCn1c(Cc2ccccc2)c(C(C)C)c(=O)[nH]c1=O	>100 µM
N#C/C(=C/c1ccc2ccccc2c1)n1nnc2ccccc21	0.4 µM
CC1=C(/C=C/C=C/C=C/C=C/C(=O)OC[C@H]2O[C@@H](n3ccc(N)nc3=O)CS2)C(C)(C)CCC1	40 µM
Cc1ccc(CN2C(=O)CSC2c2c(F)cccc2Cl)o1	46.9 µM
Nc1nc2c(ncn2COCCO)c(=O)[nH]1	>100 µM
CNn1cc(C(=O)O)c(=O)c2cc(F)c(N3CCN(c4ncccn4)CC3)c(OC(F)F)c21	>24.9 µg/mL
COC(=O)Cn1c(Cc2ccccc2)c(C(C)C)c(=O)[nH]c1=O	>100 µM
CC[C@H](C)[C@H](NC(=O)OC(C)(C)C)C(=O)NNc1ccn([C@H]2CC[C@@H](CO)O2)c(=O)n1	>100 µM
Brc1cnn2c1nnc1ccccc12	>200 µM
C=C(C)[C@@H]1CC[C@]2(C(=O)NCCCCCCCCCNC(C)=O)CC[C@]3(C)[C@H](CC[C@@H]4[C@@]5(C)CC[C@H](OC(=O)CC(C)(C)C(=O)O)C(C)(C)[C@@H]5CC[C@]43C)[C@@H]12	7.4 µM
Nc1ncnc2c1nnn2[C@H]1C[C@H](O)[C@@H](CO)O1	1.2 µM
Cn1cccc1CN1C(=O)CSC1c1c(F)cccc1F	146 µM
N#C/C(=C\c1ccco1)n1nc2ccccc2n1	>100 µM
Cc1cccc(N2C(=O)CSC2c2c(Cl)cccc2Cl)n1	242.2 µM
O=S(=O)(O)OCC1OC2OC3C(COS(=O)(=O)O)OC(OC4C(COS(=O)(=O)O)OC(OC5C(COS(=O)(=O)O)OC(OC6C(COS(=O)(=O)O)OC(OC7C(COS(=O)(=O)O)OC(OC8C(COS(=O)(=O)O)OC(OC9C(COS(=O)(=O)O)OC(OC1C(OS(=O)(=O)O)C2OS(=O)(=O)O)C(OS(=O)(=O)O)C9OS(=O)(=O)O)C(OS(=O)(=O)O)C8OS(=O)(=O)O)C(OS(=O)(=O)O)C7OS(=O)(=O)O)C(OS(=O)(=O)O)C6OS(=O)(=O)O)C(OS(=O)(=O)O)C5OS(=O)(=O)O)C(OS(=O)(=O)O)C4OS(=O)(=O)O)C(OS(=O)(=O)O)C3OS(=O)(=O)O	>2500 µg/mL
CCOC(=O)CCCCCn1c(Cc2ccccc2)c(C(C)C)c(=O)[nH]c1=O	>100 µM
Cc1ccnc2c1[nH]c(=S)n2Cc1c(F)cccc1F	0.083 µg/mL
CCc1cc(NCc2cc(C)c(C)cc2OC)c(=O)[nH]c1C	>50 µM
Nc1nc(=S)c2ncn(CCOCP(=O)(O)O)c2[nH]1	>8.9 µg/mL
N#Cc1cnn2c1n[n+]([O-])c1cc([N+](=O)[O-])ccc12	1 µM
O=C1CSC(c2ccc(-c3cccc4ccccc34)cc2)N1Cc1ccco1	39.32 µM
N#C/C(=C\c1cccc(F)c1F)n1nnc2ccccc21	3.3 µM
c1ccc(C2SCc3nc4ccccc4n32)cc1	19.2 µM
CC(C)(C)n1cc(C(=O)O)c(=O)c2cc(F)c(N3CCN(c4ncccn4)CC3)cc21	>24.8 µg/mL
C=C(C)[C@@H]1CC[C@]2(C(=O)NCCCCCCCCNC(C)=O)CC[C@]3(C)[C@H](CC[C@@H]4[C@@]5(C)CC[C@H](OC(=O)CC(C)(C)C(=O)O)C(C)(C)[C@@H]5CC[C@]43C)[C@@H]12	7 µM
CCOC(=O)CCCn1c(Cc2ccccc2)c(C(C)C)c(=O)[nH]c1=O	>65 µM
O=[N+]([O-])c1cnn2c1n[n+]([O-])c1cc(Cl)ccc12	1.4 µM
CCc1cc(NCc2cccnc2OC)c(=O)[nH]c1C	>50 µM
Clc1ccc2nnc3ccnn3c2c1	>200 µM
N#C/C(=C\c1ccc(C#N)cc1)n1nnc2ccccc21	3 µM
CC(C)c1c(Cc2ccccc2)n(CC(N)=O)c(=O)[nH]c1=O	>100 µM
Cc1ccc(NC(=S)OCCN2C(=O)c3ccc(C)cc3C2=O)cc1	>100 µM
CCn1cc(C(=O)O)c(=O)c2ccc(N3CCN(c4ncccn4)CC3)c(OC(F)F)c21	>25 µg/mL
Nc1ccn([C@H]2OC[C@@H](CO)[C@H]2O)c(=O)n1	>100 µM
CCCN1C(=O)N(CCC)N(C(=O)C(C)C)C[C@@H](O)[C@H]1Cc1ccccc1	>100 µM
Nc1nccc2c1ncn2[C@H]1C[C@H](O)[C@@H](CO)O1	145 µM
Fc1cccc(F)c1CCn1c(=S)[nH]c2cccnc21	>25 µg/mL
C=C1C(n2cnc3c(N)ncnc32)C=CC1(CO)CO	99 µM
OC[C@H]1O[C@@H](n2nnc3c(Cl)nccc32)C[C@@H]1O	272 µM
Clc1ccc2c(c1)nnc1c(Br)cnn12	>200 µM
CCc1nc([N+](=O)[O-])c(N2CCN(C(=O)c3ccc(Cl)cc3Cl)CC2)n1Cc1ccccc1	17.73 µg/mL
Nc1nccc2c1ncn2[C@@H]1O[C@H](CO)[C@@H](O)[C@H]1O	218 µM
N#Cc1cnn2c1n[n+]([O-])c1ccc(Cl)cc12	25 µM
O=C1CSC(c2c(F)cccc2F)N1Cc1ccco1	208 µM
OC[C@H]1O[C@@H](n2nnc3ccnc(Cl)c32)C[C@@H]1O	>368 µM